{"source": "patent US20150353852A1", "about": "“Microorganisms for Producing Volatile Organic Compounds” (priority 2010, published 2015)", "test": "SPME-GC/MS analysis of fungal VOCs (composition)", "conditions": "for Relative Area: VOCs produced by F1-9, a Nodulisporium sp. isolate, GC/MS; for Percent: share of total relative area of VOCs produced by F1-9, a Nodulisporium sp. isolate", "note": "Values joined by “and” are separate entries in the source; they are usually repeats but may differ in a detail not shown here. Equal entries are not always repeated."}
{"smiles": "CC1=CC[C@@]23C[C@@H]1C(C)(C)[C@@H]2CC[C@H]3C", "values": [{"measurement": "Relative Area", "value": 339.30, "unit": "ng"}, {"measurement": "Percent", "value": 0.96, "unit": "%"}]}
{"smiles": "C=C(C)[C@@H]1CCC(C)=C2CC[C@H](C)[C@@H]2C1", "values": [{"measurement": "Percent", "value": "2.50% and 11.50%"}]}
{"smiles": "C=CC1(C)CCCC(=C)CC1C=C(C)C", "note": "(stereo not drawn)", "values": [{"measurement": "Relative Area", "value": 236.25, "unit": "ng"}, {"measurement": "Percent", "value": 0.67, "unit": "%"}]}
{"smiles": "C=C1CCCC(C)(C)C12CC=C(C)CC2", "note": "(stereo not drawn)", "values": [{"measurement": "Relative Area", "value": 234.11, "unit": "ng"}, {"measurement": "Percent", "value": 0.66, "unit": "%"}]}
{"smiles": "CC1=CC[C@@H]2[C@@H]3[C@H]1[C@@]2(C)CCCC3(C)C", "values": [{"measurement": "Relative Area", "value": 257.54, "unit": "ng"}, {"measurement": "Percent", "value": 0.73, "unit": "%"}]}
{"smiles": "CC1=C[C@@H]2[C@H](CC1)C(C)=CCCC2(C)C", "values": [{"measurement": "Relative Area", "value": 146.86, "unit": "ng"}, {"measurement": "Percent", "value": 0.42, "unit": "%"}]}
{"smiles": "C=C1CCCC(C)(C)[C@H]2C=C(C)CC[C@@H]12", "note": "(relative stereo)", "values": [{"measurement": "Relative Area", "value": 276.47, "unit": "ng"}, {"measurement": "Percent", "value": 0.78, "unit": "%"}]}
{"smiles": "CC1=CCC[C@]2(C)CCC(=C(C)C)C[C@@H]12", "note": "(relative stereo)", "values": [{"measurement": "Relative Area", "value": 1516.84, "unit": "ng"}, {"measurement": "Percent", "value": 4.30, "unit": "%"}]}
{"smiles": "C=C1CCC[C@]2(C)CCC(=C(C)C)C[C@@H]12", "note": "(relative stereo)", "values": [{"measurement": "Relative Area", "value": 264.82, "unit": "ng"}, {"measurement": "Percent", "value": 0.75, "unit": "%"}]}
{"smiles": "C=C1CCC(C(C)C)C2C=C(C)CCC12", "note": "(single isomer, unassigned; (+)) [(+)-Epi-bicyclosesquiphellandrene]", "values": [{"measurement": "Relative Area", "value": 89.86, "unit": "ng"}, {"measurement": "Percent", "value": 0.25, "unit": "%"}]}
{"smiles": "CC(C)CCO", "note": "[1-Butanol, 3-methyl-]", "values": [{"measurement": "Relative Area", "value": 1999.66, "unit": "ng"}, {"measurement": "Percent", "value": 5.67, "unit": "%"}]}
{"smiles": "CC(C)CO", "note": "[1-Propanol, 2-methyl-]", "values": [{"measurement": "Relative Area", "value": 79.46, "unit": "ng"}, {"measurement": "Percent", "value": 0.23, "unit": "%"}]}
{"smiles": "CCC(C)CC(C)=O", "note": "(stereo not drawn) [2-Hexanone, 4-methyl-]", "values": [{"measurement": "Relative Area", "value": 132.80, "unit": "ng"}, {"measurement": "Percent", "value": 0.38, "unit": "%"}]}
{"smiles": "CCC(=O)C(C)C(CC)CC", "note": "(stereo not drawn) [3-Heptanone, 5-ethyl-4-methyl-]", "values": [{"measurement": "Relative Area", "value": 313.67, "unit": "ng"}, {"measurement": "Percent", "value": 0.89, "unit": "%"}]}
{"smiles": "C=C1C=C2[C@@H](CC1)[C@@H](C)CCCC2(C)C", "note": "[10s,11s-Himachala-3(12),4-diene]", "values": [{"measurement": "Relative Area", "value": 84.09, "unit": "ng"}, {"measurement": "Percent", "value": 0.24, "unit": "%"}]}
{"smiles": "C=C1CC/C=C(/C)CC[C@@H]2[C@@H]1CC2(C)C", "note": "[Caryophyllene]", "values": [{"measurement": "Relative Area", "value": 178.91, "unit": "ng"}, {"measurement": "Percent", "value": 0.51, "unit": "%"}]}
{"smiles": "C=C(C)[C@H]1CC=C(C)CC1", "note": "[D-Limonene]", "values": [{"measurement": "Relative Area", "value": 85.70, "unit": "ng"}, {"measurement": "Percent", "value": 0.24, "unit": "%"}]}
{"smiles": "CC1=CC2=C(C(C)C)CC[C@@H](C)[C@@H]2CC1", "note": "[Epizonarene]", "values": [{"measurement": "Relative Area", "value": 651.67, "unit": "ng"}, {"measurement": "Percent", "value": 1.85, "unit": "%"}]}
{"smiles": "CC1=CCC2C(=C1)C(C)(C)CCCC2C", "note": "(stereo not drawn) [Himachala-2,4-diene]", "values": [{"measurement": "Relative Area", "value": 122.17, "unit": "ng"}, {"measurement": "Percent", "value": 0.35, "unit": "%"}]}
{"smiles": "OCCc1ccccc1", "note": "[Phenylethyl Alcohol]", "values": [{"measurement": "Relative Area", "value": 70.38, "unit": "ng"}, {"measurement": "Percent", "value": 0.20, "unit": "%"}]}
{"smiles": "CC1=CC[C@]2(C)CCCC(C)(C)[C@@]23C[C@@H]13", "note": "[Thujopsene]", "values": [{"measurement": "Relative Area", "value": 155.35, "unit": "ng"}, {"measurement": "Percent", "value": 0.44, "unit": "%"}]}
{"smiles": "CC12CCC(CC1)C(C)(C)O2", "note": "[cineole]", "values": [{"measurement": "Relative Area", "value": 6153.56, "unit": "ng"}, {"measurement": "Percent", "value": 17.45, "unit": "%"}]}
{"smiles": "C/C1=C\\CC/C(C)=C/CC(C)(C)/C=C/C1", "note": "[α-Caryophyllene]", "values": [{"measurement": "Relative Area", "value": 139.68, "unit": "ng"}, {"measurement": "Percent", "value": 0.40, "unit": "%"}]}
